Measurements taken from patent publication US9901592B2 (priority 2008, dated 2018).
Converted amounts (≈) assume the structure as drawn. Read-outs that look alike come from different tables or passages of the source.

Tests used:
Format in all cases: cell-based
S. pyogenes = tested on: S. pyogenes
S. pneumoniae [1] = tested on: S. pneumoniae
S. pneumoniae [2] = assay: microbe, parasite or virus in culture; details: Streptococcus pneumoniae, read-out: Selected Resistance MIC, strain 7127 Macrolide-S [S20N in L4, A105V in L22], after serial passages in the drug

CCC[C@@H]1C[C@@H](C(=O)N[C@@H]([C@H]2O[C@H](SC)[C@H](O)[C@@H](O)[C@H]2O)[C@H](C)Cl)N(C)C1 [CLN, clindamycin]
Mutant selection frequencies (S. pyogenes; at 2×MIC): <7.7×10^−11-2.1×10^−7
Mutant selection frequencies (S. pyogenes; at 8×MIC): <7.7×10^−11-1.1×10^−7
Mutant selection frequencies (S. pneumoniae [1]; at 2×MIC): <2.4×10^−10-1.7×10^−4
Mutant selection frequencies (S. pneumoniae [1]; at 8×MIC): <1.2×10^−10-5.6×10^−7
MIC (S. pneumoniae [2]): 0.25 µg/mL (≈ 0.588 µM)
